We go through seven molecules from publication PMC8694051 (Proceedings of the National Academy of Sciences of the …, 2021).

Assay [1] has as its system VSV-SARS-CoV-2 chimeric virus. Nature of the assay: VSV-SARS-CoV-2 chimeric virus entry into Calu-3 cells, GFP. Conditions: for IC50: read-out: IC50 in the VSV-SARS-CoV-2 cell entry assay, dashed lines of Fig. 8.

The term EC50 denotes the concentration that produces a half-maximal response. Read a low EC50 as greater potency. As a reminder, the IC50 is the midpoint of a concentration-inhibition curve.

Take `CC(=O)NCC(=O)N[C@@H](CCC(N)=O)C(=O)N[C@@H](Cc1ccccc1)C(=O)N[C@@H](CCCNC(=N)N)C(=O)c1nc2ccccc2s1`: in assay [1], the EC50 turned out to be 0.43 nM and the IC50 was 0.43 nM. In the assay on VSV-MERS, this molecule registered an EC50 of 0.87 nM.
On to `CC(=O)N[C@@H](CCC(N)=O)C(=O)N[C@@H](Cc1ccccc1)C(=O)N[C@@H](CCCNC(=N)N)C(=O)c1nc2ccccc2s1` [Compound 6, Ac-QFR-kbt], for which the EC50 in assay [1] came to 0.53 nM; with VSV-MERS, 0.55 nM.
On to `CC(=O)N[C@H]1CC(=O)NCCCC[C@@H](C(=O)N[C@@H](CCCNC(=N)N)C(=O)c2nc3ccccc3s2)NC(=O)[C@H](CC(C)C)NC1=O`, for which the IC50 in assay [1] stood at 197 nM.
The molecule `CC(=O)NC(CO)C(=O)NC(CCCCN)C(=O)NC(CC(C)C)C(=O)NC(CCCNC(=N)N)C(=O)c1nc2ccccc2s1` (stereo not drawn) [Compound 3, Ac-SKLR-kbt] had an EC50 in assay [1] of 4270 nM.
`CC(=O)N[C@@H](CO)C(=O)N[C@@H](CCCCN)C(=O)N[C@@H](CC(C)C)C(=O)N[C@@H](CCCNC(=N)N)C(=O)c1nc2ccc(C(=O)N[C@H](C(N)=O)C(C)C)cc2s1` registered an EC50 in assay [1] of 459 nM.
Consider `CCC(C)[C@H](NC(C)=O)C(=O)N[C@@H](CCC(N)=O)C(=O)N[C@@H](Cc1ccccc1)C(=O)N[C@@H](CCCNC(=N)N)C(=O)c1nc2ccccc2s1` (stereo partly drawn), for which the EC50 in assay [1] is 3.6 nM; in the assay on VSV-MERS, 2.3 nM.
The matching figures for `CC(=O)N1CCC[C@H]1C(=O)N[C@@H](CCC(N)=O)C(=O)N[C@@H](Cc1ccccc1)C(=O)N[C@@H](CCCNC(=N)N)C(=O)c1nc2ccccc2s1`: 0.86 nM and 2.9 nM.
